From article PMC2194779, “Fragment-based identification of determinants of conformational and spectroscopic change at the ricin active site” (2007)

Columns and labels:
ricin A-chain (RTA) [1] = biological target: T1, ricin A-chain (RTA) (Ricinus communis, UniProt P02879); assay: Tryptophan fluorescence titration of ligands onto RTA (single-site binding, van't Hoff analysis); settings: for ΔG°: binding to RTA; for wavelength of maximal emission of RTA fluorescence: in the presence of 2 mM adenine or 1.0 M urea, RTA alone 330 nm; for ΔH° / ΔS°: van't Hoff analysis, 5 to 30°C
ricin A-chain (RTA) [2] = biological target: T1, ricin A-chain (RTA); settings: cited from earlier work
RTA depurination site = settings: monitored by fluorescence; ref 10 (Watanabe et al.); cited from earlier work
[3] = 25°C, average and standard error of three measurements

Molecule: Nc1ncnc2nc[nH]c12
- Kd (ricin A-chain (RTA) [1]; fluorescence): 700 µM
- Kd (ricin A-chain (RTA) [1]; fluorescence intensity at 344 nm, 25°C, pH 7.4, average and standard error of three measurements): 700 µM

Molecule: guanidine-HCl
- RTA fluorescence increase on titration (ricin A-chain (RTA) [2]): did not produce a fluorescence increase

Molecule: Formamide
- RTA fluorescence increase (ricin A-chain (RTA) [1]; at molar concentrations): produced similar fluorescence increases
- ΔG° (ricin A-chain (RTA) [1]; [3]): 0 ± 0.3 kJ/mol

Molecule: N, N-dimethylurea
- RTA fluorescence increase (ricin A-chain (RTA) [1]; at molar concentrations): did not
- binding to RTA in fluorescence experiments (ricin A-chain (RTA) [1]; dissociation constant could not be determined): bind weakly if at all

Molecule: Acetamide
- RTA fluorescence increase (ricin A-chain (RTA) [1]; at molar concentrations): produced similar fluorescence increases
- ΔG° (ricin A-chain (RTA) [1]; [3]): 0.8 ± 0.06 kJ/mol

Molecule: Nc1ncnc2[nH]cnc12
- Kd (RTA depurination site): 1 mM
- ΔG° (ricin A-chain (RTA) [1]; [3]): -20 ± 0.6 kJ/mol
- wavelength of maximal emission of RTA fluorescence (ricin A-chain (RTA) [1]): 334 nm
- ΔH° (ricin A-chain (RTA) [1]): -53 ± 3 kJ/mol
- ΔS° (ricin A-chain (RTA) [1]): -0.12 ± 0.01 kJ/(K*mol)
- ΔH° (ricin A-chain (RTA) [1]; listed as adenine): -53 kJ/mol

Molecule: Urea
- ΔG° (ricin A-chain (RTA) [1]; [3]): -2 ± 0.6 kJ/mol
- wavelength of maximal emission of RTA fluorescence (ricin A-chain (RTA) [1]): 334 nm
- ΔH° (ricin A-chain (RTA) [1]): -13 ± 2 kJ/mol
- ΔS° (ricin A-chain (RTA) [1]): -0.04 ± 0.01 kJ/(K*mol)

Molecule: hydroxyurea
- RTA fluorescence increase (ricin A-chain (RTA) [1]; at 1 M): no detectable fluorescence increase
- RTA fluorescence increase (ricin A-chain (RTA) [1]; at molar concentrations): did not

Molecule: N-methylurea
- RTA fluorescence increase (ricin A-chain (RTA) [1]; at molar concentrations): produced similar fluorescence increases
- ΔG° (ricin A-chain (RTA) [1]; [3]): -0.2 ± 0.09 kJ/mol
